Laboratory results from article PMC6445327, “Inhibition of the α-carbonic anhydrase from Vibrio cholerae with amides and sulfonamides incorporating imidazole moieties” (Journal of Enzyme Inhibition and Medicinal Chemistry, 2017).

Each molecule was assayed on two V. cholerae O1 strains (ATCC14103 and ISS-Vc014) (assay: In vitro antibacterial assay (broth dilution), strain not distinguished). Details: tested 0.1 μg ml^−1 to 1 mg ml^−1; effect at 1 mg ml^−1.
Format: cell-based, Vibrio cholerae

Compound | inhibition of the bacterial growth
O=C(NCCCn1ccnc1)c1ccc(C(F)(F)F)cc1 [Compound 7, N-(3-(1H-imidazol-1-yl)propyl)-4-(trifluoromethyl)benzamide] | partial inhibition
O=S(=O)(NCCCn1ccnc1)c1ccc(F)cc1 [Compound 2, N-(3-(1H-imidazol-1-yl)propyl)-4-fluorobenzenesulfonamide] | partial inhibition
O=C(NCCCn1ccnc1)c1ccc([N+](=O)[O-])cc1 [Compound 8, N-(3-(1H-imidazol-1-yl)propyl)-4-nitrobenzamide] | partial inhibition
